# Tested on: honey bees
# Assay: Package bee colonies, brood production and food consumption
# Assay type: in vivo, honey bee
# Settings: control bees remove all of 2000 ml
# Procedure: Forty-two packages of honey bees (2 lbs.~907 g) are obtained from 22 colonies infested with Acarapis woodi. Infestations range from 60 to 100%. Each package is provided with a mated queen and 550 ml of treated or untreated 50% (wt/wt) sucrose syrup. All treated colonies receive syrup containing either 0.5 mg/ml (group B) or 1.0 mg/ml (group C) of 2-(2,4-dimethylphenylimino)-3-methyl-4-thiazoline hydrochloride. The control (group A) consists of 10 packages of bees and the treatment groups B and C of 16 packages each.
# After installation on frames free of nectar and pollen, package colonies are examined at weekly intervals to determine food consumption, brood production and bee mortality. Random samples of ten bees/colony are examined on days 5, 12, 19, 26, 33 and 40. On day 0 and 5 bees are examined. Dissections and live mite determinations are made according to Eischen et al. (Am. Bee J. 127: 99-101, 1987).
structure (smiles),measurement,setting,value
"Cc1ccc(N=c2sccn2C)c(C)c1.Cl [2-(2,4-dimethylphenylimino)-3-methyl-4-thiazoline hydrochloride]","syrup utilized/hoarded, average per colony","group B, 0.5 mg/ml",654 mL
same,"syrup utilized/hoarded, average per colony","group C, 1.0 mg/ml",526 mL

# Source: patent US4876265A, “Process and compositions for controlling mites parasitizing on honey bees” (priority 1983, dated 1989)
